Results reported in paper PMC6928861.

Columns and labels:
P10636 [1] = assay: native MS; 35 µM Tau with 1.1 mM CaCl2, pH 7.4, 1 mM DTT, 0.5 mg/mL heparin sodium salt, 50 mM NaCl, 1 mM PMSF, 37 °C, agitation 800 rpm, 0 h to 168 h; analysed in 100 mM ammonium bicarbonate pH 7.2; peak fitting and deconvolution into monomers, 2-9-mers and >10-mers
P10636 [2] = assay: native MS; 35 µM Tau with 1.1 mM ZnCl2, pH 7.4, 1 mM DTT, 0.5 mg/mL heparin sodium salt, 50 mM NaCl, 1 mM PMSF, 37 °C, agitation 800 rpm, 0 h to 168 h; analysed in 100 mM ammonium bicarbonate pH 7.2; peak fitting and deconvolution into monomers, 2-9-mers and >10-mers

Substance: full-length human Tau protein (hTau441)
- percent of overall species that are larger aggregates, with Ca^2+, at the end point (168 h) (P10636 [1]): reaching ~15% of the overall species at the end point
- percent of total species that are larger aggregates, with Zn^2+, along the reaction (to 168 h) (P10636 [2]): The formation of larger Tau aggregates steadily increases up to 35% of total species along the reaction
